These results are taken from patent EP3858345B1, “RADIOTRACER DERIVATIVES OF TRIMETHOPRIM FOR DIAGNOSTIC IMAGING” (dated 2026).

This assay relates to Live bacteria (E. coli, 1 x 10^8 CFU). Description: Infection v inflammation imaging in mice.

In the case of `OC[C@H]1OC(O)[C@H](F)[C@@H](O)[C@@H]1O` (stereo partly drawn), the “uptake for bacteria versus turpentine inflammation” value (injected the day after [^18F]FPTMP) was “no difference”.
For [^18F]Fluoropropyltrimethoprim, under “30 µL of turpentine in left leg 3 days prior to imaging”, the “uptake in turpentine inflammation” value is on record as “not in turpentine inflammation”. The “uptake in live bacteria” value (E. coli subcutaneously in right leg, PET imaging) is listed as “observed”.
